Anti-infective test results gathered from many reports (values: NIAID ChemDB through PubChem).

All rows: tests in culture; species: Human cytomegalovirus

Neighbouring rows are from separate reports.

structure	cell line	read by	strain or isolate	endpoint	value
CCCCCCCCCCCCCCCCCCOC[C@H](COP(=O)(O)CO[C@H](CO)Cn1ccc(N)nc1=O)OCc1ccccc1	HFF	plaque count	VR4955 (foscarnet-resistant)	EC50	0.004 µM
O=C(NCc1ccc(Cl)cc1)c1c[nH]c2ccc(C#CCO)cc2c1=O		plaque count	Clinical isolates	EC90	7.2 µM
Nc1ccn(C[C@@H](CO)OCP(=O)(O)O)c(=O)n1	HEL	cytopathic effect	AD169	EC50	0.15 µM
Nc1nc2c(ncn2/C=C2/CC2(CO)CO)c(=O)[nH]1	HFF	plaque count	DAVIS	EC50	1 µM
CCCCCCCCCCCCCCCCOP1(=O)CO[C@@H](Cn2ccc(N)nc2=O)CO1	HFF	plaque count	AD169	EC50	0.038 µM
Nc1ncnc2c1ncn2[C@@H]1C=C(CO)[C@@H](O)[C@H]1O	HEL	cytopathic effect	DAVIS	EC50	0.4 µg/mL
OCC(CO)OCn1c(Br)nc2c(Cl)cc(Cl)cc21		virus yield		EC50	<50 µM
O[C@@H]1[C@H](O)[C@H](O)CO[C@H]1n1c(Br)nc2cc(Cl)c(Cl)cc21	MRC-5	plaque count	XBAF (deletion 591-593)	EC50	0.9 µM
Nc1ncnc2c1ncn2C[C@@H](CO)OCP(=O)(O)O	HEL	plaque count	DAVIS	EC50	0.57 µM
Nc1ncnc2c1ncn2C=C1CC1CO		plaque count	VR4760 (ganciclovir-resistant)	EC90	6.9 µM
CCCCCCCC/C=C\CCCCCCCOCCOP1(=O)CO[C@@H](Cn2ccc(N)nc2=O)CO1	HFF	plaque count	AD169	EC50	0.002 µM
CCCCCCc1cc2cnc(OC3CCCCC3)nc2o1	HEL	plaque count	DAVIS	EC50	>5 µM
CCOC(=O)CN1N=C(c2cccc(NC(=O)Nc3ccc(Cl)cc3C)c2)C(C)(C)C1=O	NHDF	cytopathic effect		EC50	0.38 µM
CCCCCCCC/C=C/CCCCCCCC(=O)OCC(CO)OCn1cnc2c(=O)[nH]c(N)nc21	HEL	cytopathic effect	DAVIS	EC50	3.5 µM
Nc1nc2c(ncn2COC(CO)CO)c(=O)[nH]1	HFF	plaque count	C9208/5-4-2	EC50	2.4 µM
Nc1nc2c(ncn2COC(CO)CO)c(=O)[nH]1	HFF	plaque count	AD169	EC50	0.9 µM
CCCCCCCCc1cc2cn(C3CCCC3)c(=O)nc2o1	HEL	plaque count	DAVIS	EC50	>20 µM
Nc1cc2c(=O)c(C(=O)O)cn(N)c2cc1N1CCN(c2ccccn2)CC1	HFF	plaque count	AD169	EC50	19.5 µM
CCCCCCc1cc2cnc(OC3CCCC3)nc2o1	HEL	plaque count	DAVIS	EC50	20 µM
C[C@H]1O[C@@H](n2c(Cl)nc3cc(Cl)c(Cl)cc32)[C@H](O)C1O	HFF	plaque count	Isolate C4 mutations D344E + Q204R	EC50	13 µM
CCCCCCCC/C=C\CCCCCCCCOCCOP(=O)(O)CO[C@H](CO)Cn1ccc(N)nc1=O	HFF	plaque count	AD169	EC50	0.0012 µM
CC(C)(CCl)C(=O)Nc1ccc(NS(=O)(=O)c2cccc3ccccc23)cc1	Human embryonic lung fibroblasts	cytopathic effect	DAVIS	EC50	0.087 µM
Cc1cc(Cl)ccc1NC(=O)Nc1cccc(-c2n[nH]c(=O)n2C(C)c2ccccc2)c1	NHDF	cytopathic effect		EC50	0.5 µM
CC(C)Nc1nc2cc(Cl)c(Cl)cc2n1[C@@H]1O[C@H](CO)[C@@H](O)[C@H]1O	MRC-5	plaque count	AD169	EC50	7.5 µM
OC[C@H]1O[C@@H](n2c(Br)nc3cc(Cl)c(Cl)cc32)[C@H](O)[C@@H]1O	HFF	plaque count	AD169	EC50	0.4 µM
CCCCCCc1cc2cn(C3CCCC3)c(=O)nc2o1	HEL	plaque count	DAVIS	EC50	>50 µM
CC1(C)C(=O)NN=C1c1cccc(NC(=O)Nc2ccc(F)c(Cl)c2)c1	NHDF	cytopathic effect		EC50	0.4 µM
CCCCCCCCCCCCCCCCCCOCCCOP1(=O)CO[C@@H](Cn2ccc(N)nc2=O)CO1	HFF	plaque count	AD169	EC50	0.006 µM
CC(C)n1c(-c2cccc(NC(=O)Nc3cccc(Cl)c3)c2)n[nH]c1=O	NHDF	cytopathic effect		EC50	0.19 µM
N#CC1C(c2ccc(Cl)cc2)Nc2ccccc2S1(=O)=O	HEL	cytopathic effect	DAVIS	EC50	2.8 µg/mL
O=C(NCc1ccc(Cl)cc1)c1c[nH]c2ccc(CCCO)cc2c1=O		plaque count	759rD100	EC90	2.1 µM
CNc1cccc2c(S(=O)(=O)Nc3ccc(NC(=O)C(C)(C)CF)cc3)cccc12		plaque count	WILD TYPE	EC50	0.14 µM
CCCCCCCCOCCCOP(=O)(O)CO[C@H](CO)Cn1ccc(N)nc1=O	HFF	plaque count	AD169	EC50	>1 µM
Nc1nc2c(ncn2COC(CO)CO)c(=O)[nH]1	MRC-5	plaque count	Isolate T1337	EC50	2.51 µM
Cn1cc(C(=O)NCc2ccc(Cl)cc2)c(=O)c2cc(CN3CCOCC3)ccc21	HFF	virus yield	DAVIS	EC90	3.3 µM
CCCCCCc1cc2cn(CCC(C)C)c(=O)nc2o1	HEL	plaque count	DAVIS	EC50	>200 µM
Nc1ccn(C[C@@H](CO)OCP(=O)(O)O)c(=O)n1	HEL	plaque count	AD169	EC50	0.18 µM
Nc1nc2c(ncn2COC(CO)CO)c(=O)[nH]1	MRC-5	plaque count	C9003	EC50	1 µM
CN(C)c1cccc2c(S(=O)(=O)Nc3ccc(NC(=O)C(C)(C)CO)cc3)cccc12		plaque count	isolates B.K.3)	EC50	1.97 µM
OC[C@H]1O[C@@H](n2c(Br)nc3cc(Cl)c(Cl)cc32)[C@H](O)[C@@H]1O		plaque count		EC50	2.9 µM
Cc1c(S(=O)(=O)c2ccc(Cl)cc2)c(NC(=O)C(F)(F)F)n(Cc2ccc(Cl)cc2)c1C	HEL	cytopathic effect	DAVIS	EC50	0.6 µg/mL
OC[C@H]1O[C@@H](n2c(Cl)nc3cc(Cl)c(Cl)cc32)[C@H](O)[C@@H]1O	HFF	plaque count	Isolate D10 (D344E mutation)	EC50	17 µM
Nc1ccn(C[C@@H](CO)OCP(=O)(O)O)c(=O)n1	HFF	plaque count	1117-R	EC50	1.6 µM
Nc1nc2c(ncn2COC(CO)CO)c(=O)[nH]1	HELF	plaque count	HE	EC50	5.9 µM
Nc1nc2ncn(/C=C3\C(F)C3(CO)CO)c2c(=O)[nH]1	HFF	cytopathic effect	TOWNE	EC50	>100 µM
CCCCCCCCc1cc2cn(CCC(C)C)c(=O)nc2o1	HEL	plaque count	AD169	EC50	>200 µM
CNc1cc2c(=O)c(C(=O)O)cn(N(C)C)c2cc1N1CCN(c2ccccn2)CC1	HFF	plaque count	AD169	EC50	10.3 µM
O[C@@H]1[C@H](O)[C@H](O)CO[C@H]1n1c(Br)nc2cc(Cl)c(Cl)cc21	HFF	plaque count	VR4760R (drug-resistant)	EC50	2.5 µM
CCCCc1cc2cn(CCC(C)C)c(=O)nc2o1	HEL	plaque count	DAVIS	EC50	>200 µM
Nc1nc2c(ncn2CSC(CO)CO)c(=O)[nH]1	HFF	plaque count	AD169	EC50	>100 µM
N#CC1C(c2ccc(Cl)cc2)Nc2c(ccn2Cc2ccccc2)S1(=O)=O	HEL	cytopathic effect	DAVIS	EC50	>5 µg/mL
CCCCCCCCCCCCCCCCCCOC[C@H](COP(=O)(O)CO[C@H](CO)Cn1ccc(N)nc1=O)OCc1ccccc1	HFF	plaque count	AD169	EC50	0.003 µM
Nc1nc2c(ncn2COC(CO)CO)c(=O)[nH]1	MRC-5	plaque count	C8704 (ganciclovir-resistant)	EC50	7.6 µg/mL
O=C(O)P(=O)(O)O	HEL	plaque count	LY9990 (ganciclovir-resistant)	EC50	42 µM
CNc1cc2c(=O)c(C(=O)O)cn(C)c2cc1N1CCN(c2ccccn2)CC1	HFF	plaque count	AD169	EC50	1.1 µM
OC[C@H]1O[C@@H](n2c(Br)nc3cc(Cl)c(Cl)cc32)[C@H](O)[C@@H]1O	HFF	plaque count	D-10 C4 (BDCRB-resistant)	EC50	>10 µg/mL
Nc1nc2c(ncn2COC(CO)CO)c(=O)[nH]1	HEL	cytopathic effect	AD169	EC50	1.75 µM
NC(=O)c1c(Cl)c(-c2cccnc2)n2c1CCCC2	HEL	plaque count	Clinical isolates	EC50	0.005 µM
COc1ccccc1N1CCN(c2cc3c(cc2N)c(=O)c(C(=O)O)cn3C2CC2)CC1	HFF	plaque count	AD169	EC50	>25 µM
Nc1nccc2c1ncn2C[C@@H](CO)OCP(=O)(O)O	HEL	plaque count	DAVIS	EC50	0.12 µM
COc1cccc(N2CCN(c3cc4c(cc3N)c(=O)c(C(=O)O)cn4C3CC3)CC2)c1	HFF	plaque count	AD169	EC50	2.6 µM
Nc1ncnc2c1ncn2C=C1CC1CO	KB	plaque count	TOWNE	EC50	2 µM
Cn1cc(C(=O)NCc2ccc(Cl)cc2)c(=O)c2cc(CN3CCOCC3)ccc21	HFF	plaque count	SA	EC50	1.6 µM
Cc1c(S(=O)(=O)c2ccc(Cl)cc2)c(NC(=O)C(F)(F)F)n(Cc2ccccc2)c1C	HEL	cytopathic effect	DAVIS	EC50	1.9 µg/mL
CCC(CO)n1cc(C(=O)O)c(=O)c2cc(N)c(N3CCN(c4ccccn4)CC3)cc21	HFF	plaque count	AD169	EC50	>25 µM
CC(NC(=S)Nc1ccc(NC(=O)c2ccccc2F)cc1)c1ccc(F)cc1	HFF	ELISA	AD169	EC50	>7 µg/mL
CCOP(=O)(O)CCC(CO)OCn1cnc2c(=O)[nH]c(N)nc21	MRC-5	plaque count	AD169	EC50	7 µg/mL
CCCCCCCCCCCCCCCCOP(=O)(O)CO[C@H](CO)Cn1ccc(N)nc1=O	HFF	plaque count	VR4760 (foscarnet-resistant)	EC50	0.01 µM
OC[C@H]1O[C@@H](n2c(Cl)nc3cc(Cl)c(Cl)cc32)[C@H](O)[C@@H]1O		virus yield		EC90	0.2 µM

An empty or dashed field is not shown. ECn is the concentration giving n% inhibition of infection, replication or growth.